Taken from: PubChem BioAssay AID1224833 (University of Georgia, 2016)
The deposit covers about 12,000 reagents; shown is a part drawn at random. About 5,600 of all reagents (46%) were called active. 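Active calls cover z-scores past 1 in both directions, so they include lowered as well as raised rotavirus replication.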

Assay: 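Host factors restraining rotavirus as candidate antiviral genes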 (primary screen)
System: monkey MA104 kidney cells
Reagents: siRNA pool against human genes, 50 nM
Timing: 48 h knock-down before infection; read 24 h after infection
Treatment: infection with rotavirus strain RV3 two days after transfection; infectious dose for this stage not given
Read-out: 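Rotavirus antigen per well by fluorescent immunoassay, normalised to non-targeting control wells on each plate and given as a standard z-score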
Direction: z-score vs non-targeting control: higher = more rotavirus replication than with non-targeting control
Active means: In these data the active calls have z-score vs non-targeting control at about -1 or lower, or at about 1 or higher
Calls: active = z-score beyond 1 either way; inactive = z-score within 1 of zero

| gene | z-score vs non-targeting control | call |
| --- | --- | --- |
| METTL26 | 0.507 | inactive |
| ZBED1 | -2.45 | active |
| CDC42SE1 | -0.66 | inactive |
| CEP135 | -0.947 | inactive |
| POTEE | -1.05 | active |
| ALX1 | -0.642 | inactive |
| STAT5B | -0.814 | inactive |
| TEX264 | 0.907 | inactive |
| CCL4L2 | 0.839 | inactive |
| CEP43 | 0.212 | inactive |
| CIMIP7 | -2.77 | active |
| TMEM51 | -1.59 | active |
| PROSER2 | -0.719 | inactive |
| HSD17B8 | -1.32 | active |
| SPIN2A | 0.565 | inactive |
| RSU1 | 0.167 | inactive |
| TLR9 | 1.12 | active |
| NPY | 0.855 | inactive |
| ATG16L2 | 0.454 | inactive |
| RBFA | 0.391 | inactive |
| ITLN2 | 0.837 | inactive |
| SDCBP | 0.676 | inactive |
| YJU2B | -1.42 | active |
| SDE2 | -1.35 | active |
| MYADM | -0.365 | inactive |
| FRS3 | -0.139 | inactive |
| CIC | 0.36 | inactive |
| RGS4 | -1.23 | active |
| MISO1 | -0.613 | inactive |
| CXCL12 | -0.132 | inactive |

Part of the list above, set out differently:
{"gene":"CEP135","z-score vs non-targeting control":-0.947,"call":"inactive"}
{"gene":"POTEE","z-score vs non-targeting control":-1.05,"call":"active"}
{"gene":"ALX1","z-score vs non-targeting control":-0.642,"call":"inactive"}

The listing continues.
| gene | z-score vs non-targeting control | call |
| --- | --- | --- |
| FHOD3 | 0.07 | inactive |
| TSHB | -2.57 | active |
| CC2D1B | 0.545 | inactive |
| REV1 | -0.968 | inactive |
| CAP1 | 0.805 | inactive |
| LTV1 | 1.47 | active |
| ADGRD1 | 2.14 | active |
| CAPZA2 | -0.277 | inactive |
| OR5AR1 | -0.0898 | inactive |
| PRKRIP1 | -2.07 | active |
| CRB3 | -3.02 | active |
| TEKT3 | 0.257 | inactive |
| NECAB1 | 2.77 | active |
| MYCBP | -0.724 | inactive |
| SPEM1 | -1.3 | active |
